# Source: article PMC3597823
# How the values were obtained:
# [1] = target: N1 peptide P1 ([change]–94), Myc-tagged (murine); assay: SPR
# [2] = target: N1 peptide P2 ([change]–94), Myc-tagged (murine); assay: SPR
substance,measurement,setting,value
synthetic Aβ_(1–42) oligomers (Aβ-derived diffusible ligands) (from UniProt P05067) (peptide),kon,[1],8710 M⁻¹ s⁻¹
same,decrease of binding against N1,[2],72%
same,koff,[2],0.000137 s⁻¹
